Target: BoNT A light chain (BoNT A Lc) (Clostridium botulinum, UniProt P0DPI0)
Experiment: Kinetic constants of BoNT A substrates, HPLC assays, non-linear regression

Molecule | Km compared with full-length SNAP-25 (in words) (versus full-length SNAP-25) | kcat (Table 4, FRET substrate, 4 nM BoNT A light chain, assays by HPLC, triplicate) [s⁻¹] | type of kinetics (in words) (initial hydrolysis rates at various substrate concentrations)
CC[C@H](C)[C@H](NC(=O)[C@H](CCCNC(=N)N)NC(=O)[C@@H](NC(=O)[C@H](CCCNC(=N)N)NC(C)=O)C(C)C)C(=O)N[C@@H](CC(=O)O)C(=O)N[C@@H](C)C(=O)N[C@@H](C)C(=O)N[C@@H](CC(N)=O)C(=O)N[C@@H](CCC(N)=O)C(=O)N[C@@H](CCCNC(=N)N)C(=O)N[C@@H](C)C(=O)N[C@H](C(=O)N[C@@H](CCCNC(=N)N)C(=O)N[C@@H](CCSC)C(N)=O)[C@@H](C)O | statistically identical |  | 
[DabcylK] R V R I D A A N Q R A T R M [SFC] |  | 1.7 ± 0.090 | saturable Michaelis-Menten kinetics
